Measured values from several laboratories, pooled; numbers as filed in NIAID ChemDB.

Shared fields: cytotoxicity tests; cells: CEM; endpoint: CC50

Conditions beyond the fields shown may differ between rows.

compound | read by | result
Nc1nc2c(ncn2COCCO)c(=O)[nH]1 | visual reading | >20 µM
CCCNC(=O)c1cc(OC)c(OC)cc1NC(=O)C12CC3CC(CC(C3)C1)C2 |  | >200 µM
C#C[C@@]1(CO)C=C[C@H](n2cc(C)c(=O)[nH]c2=O)O1 |  | >100 µM
CCNC(=O)c1cc(C)ccc1NC(=O)C12CC3CC(CC(C3)C1)C2 |  | >200 µM
CNC(=O)c1cn([C@@H]2O[C@H](CO[Si](C)(C)C(C)(C)C)C3(OS(=O)(=O)C=C3N)[C@H]2O[Si](C)(C)C(C)(C)C)nn1 |  | >1.2 µM
Cc1cn([C@H]2C[C@H](N=[N+]=[N-])[C@@H](COP(=O)(OCCC#N)O[C@H]3CC[C@@]4(C)C(=CC[C@@H]5[C@@H]4CC[C@]4(C)C([C@H](C)CCCC(C)C)CC[C@@H]54)C3)O2)c(=O)[nH]c1=O |  | >200 µM
Cc1cn([C@H]2C[C@H](N=[N+]=[N-])[C@@H](CO)O2)c(=O)[nH]c1=O | MTT | >200 µM
CCOC(=O)N[C@H](C(=O)N[C@@H](Cc1ccccc1)[C@@H](O)C[C@H](Cc1ccccc1)NC(=O)c1ccccc1NC(=O)OCc1ccccn1)C(C)CC |  | >0.05 µM
CC(=N)CCNC(=O)c1cc(NC(=O)c2cc(NC(=O)c3cc(NP(=O)(OC[C@@H]4C=C[C@H](n5cc(C)c(=O)[nH]c5=O)O4)OC4CCCCC4)cn3C)cn2C)cn1C | MTT | 120 µM
COc1ccc(Nc2nc(NS(=O)(=O)c3cc(C)c(Cl)cc3S)n[nH]2)cc1 |  | >200 µM
Cc1cc(O)c2c(c1O)C(=O)C13C(=C2O)C(=O)C2C(O)C1C1C(O)C3C(=O)C3=C(O)c4c(O)cc(C)c(O)c4C(=O)C321 |  | 0.09 µM
CCCN(C)C(=O)Oc1nsnc1-c1c(Cl)ccc(N)c1Cl |  | 128 µM
CC[C@H](C)[C@H](NC(=O)c1ccccc1SSc1ccccc1C(=O)N[C@H](C(=O)O)[C@@H](C)CC)C(=O)O |  | >120 µM
O=c1cc2c(=O)oc3cc(O)c(O)oc3c2c(O)c1O |  | 15.7 µM
CC(C)CC(NC(=O)c1ccccc1SSc1ccccc1C(=O)NC(CC(C)C)C(=O)NC(C)C(=O)O)C(=O)NC(C)C(=O)O |  | 157 µM
Cc1cn([C@H]2C[C@H](N=[N+]=[N-])[C@@H](COC(=O)[C@H]3C(C#N)CC4C5CCC6=CC(=O)C=CC6(C)C5C(O)CC43C)O2)c(=O)[nH]c1=O |  | >20 µM
O=C(Nc1ccccc1C(=O)N[C@@H](Cc1ccccc1)[C@@H](O)C[C@H](Cc1ccccc1)NC(=O)c1cccc(O)c1)OCc1ccccn1 |  | >10 µM
CCCCCCCCCCCCCCCCCCOC[C@@H](O)COP(=O)(O)C(=O)O |  | 114 µM
Cc1cc(S(=O)(=O)Nc2nnc3ccccn23)c(S)cc1Cl |  | >200 µM
N#Cc1cc2c(cc1C#N)/C(=N/c1cccc(N)n1)N=C2Nc1cccc(N)n1 |  | 4 µM
Cc1cc(S(=O)(=O)Nc2nnc3c4c(C)csc4ncn23)c(S)cc1Cl |  | 117.2 µM
O=C(O)c1ccc(NC(=O)c2ccccc2SSc2ccccc2C(=O)Nc2ccc(C(=O)O)cc2)cc1 |  | 28 µM
Cc1ccc(/C=N/NC(=O)c2cc(Cl)ccc2NC(=O)C23CC4CC(CC(C4)C2)C3)o1 |  | >200 µM
Cc1cccc2c1OP(=O)(OC[C@@H]1C[C@H](F)[C@H](n3cnc4c(=O)[nH]cnc43)O1)OC2 |  | 91 µM
O=S(=O)(Nc1nnc2c3ccccc3cnn12)c1ccc(Cl)cc1S |  | >200 µM
O=C(Nc1ccc([N+](=O)[O-])cc1)c1ccccc1SSc1ccccc1C(=O)Nc1ccc([N+](=O)[O-])cc1 |  | 14 µM
Cc1cn([C@H]2C=C[C@@](C#N)(CO)O2)c(=O)[nH]c1=O |  | 100 µM
Cn1cc(NC(=O)c2cc(NC(=O)c3cc([N+](=O)[O-])cn3C)cn2C)cc1C(=O)NCCC(=N)N | MTT | 112 µM
Cc1cc(S(=O)(=O)Nc2n[nH]c(N)n2)c(S)cc1Cl |  | >200 µM
Cc1ccc2nc(C34CC5CC(CC(C5)C3)C4)oc(=O)c2c1 |  | 80 µM
CCOC(=O)c1cnnn1[C@@H]1O[C@H](CO[Si](C)(C)C(C)(C)C)C2(OS(=O)(=O)C=C2N)[C@H]1O[Si](C)(C)C(C)(C)C |  | >1.3 µM
Nc1ccn([C@H]2CC[C@@H](CO)O2)c(=O)n1 |  | 12.3 µg/mL
O=C(Nc1ccccc1O)c1ccccc1SSc1ccccc1C(=O)Nc1ccccc1O |  | 10 µM
O=C(Nc1ccccc1C(=O)N[C@@H](Cc1ccccc1)C[C@H](O)[C@H](Cc1ccccc1)NC(=O)OCc1cccnc1)OCc1ccccn1 |  | >0.35 µM
COc1cc(OC)c2c(O)c3c(c(-c4ccc5cc6c(c(O)c5c4O)C(=O)CC(C)(O)C6)c2c1)CC(C)OC3C |  | 15.6 µM
Nc1ncnc2c1ncn2[C@@H]1C=C[C@H](CO)O1 |  | 37 µM
CC(C)(C)[Si](C)(C)OC[C@H]1O[C@@H](n2cc(CCCCl)nn2)[C@H](O[Si](C)(C)C(C)(C)C)C12OS(=O)(=O)C=C2N |  | >0.66 µM
O=C(Nc1ccccc1C(=O)N[C@@H](Cc1ccccc1)C[C@H](O)[C@H](Cc1ccccc1)NC(=O)c1ccno1)OCc1ccccn1 |  | >2 µM
O=c1oc(C23CC4CC(CC(C4)C2)C3)nc2ccc(Br)cc12 |  | >200 µM
Cc1cc(S(=O)(=O)Nc2n[nH]c(Nc3ccc4ccccc4c3)n2)c(S)cc1Cl |  | >200 µM
CC#C[C@@]1(CO)C=C[C@H](n2cc(C)c(=O)[nH]c2=O)O1 |  | >100 µM
Cc1cn([C@H]2C=C[C@@H](COP(=O)(Nc3cc(C(=O)NCCC(=N)N)n(C)c3)OC(C)C)O2)c(=O)[nH]c1=O | MTT | >200 µM
O=c1oc(C23CC4CC(CC(C4)C2)C3)nc2ccc(Cl)cc12 |  | >200 µM
O=C1c2c(O)cc(O)c(O)c2C(=O)c2c(O)cc(O)c(O)c21 |  | 13.5 µM
CCCc1cnnn1[C@@H]1O[C@H](CO[Si](C)(C)C(C)(C)C)C2(OS(=O)(=O)C=C2N)[C@H]1O[Si](C)(C)C(C)(C)C |  | >3.9 µM
Cc1cn([C@H]2C[C@H](N=[N+]=[N-])[C@@H](COP(=O)(Nc3cc(C(=O)NCCC(=N)N)n(C)c3)OC3CCCCC3)O2)c(=O)[nH]c1=O | MTT | >200 µM
C1CNCCNCCCN(CCCN2CCCNCCNCCCNCC2)CCNC1 |  | >1865 µM
Cc1nc(C(=O)N[C@@H](Cc2ccccc2)[C@@H](O)C[C@H](Cc2ccccc2)NC(=O)c2ccccc2NC(=O)OCc2ccccn2)cs1 |  | >10 µM
Nc1nc2c(ncn2[C@@H]2C=C[C@H](CO)O2)c(=O)[nH]1 |  | >10 µM
Cc1cc(S(=O)(=O)Nc2n[nH]c(Nc3ccccc3)n2)c(SCC(=O)O)cc1Cl |  | >200 µM
CCCc1cn([C@@H]2O[C@H](CO[Si](C)(C)C(C)(C)C)C3(OS(=O)(=O)C=C3N)[C@H]2O[Si](C)(C)C(C)(C)C)nn1 |  | >1.3 µM
Cc1cc(S(=O)(=O)Nc2nc(N)n(-c3ccccn3)n2)c(S)cc1Cl |  | >200 µM
CCNC(=O)c1cc(OC)c(OC)cc1NC(=O)C12CC3CC(CC(C3)C1)C2 |  | >200 µM

Repeating the first 8 entries:

{"compound": "Nc1nc2c(ncn2COCCO)c(=O)[nH]1", "read by": "visual reading", "result": ">20 µM"}
{"compound": "CCCNC(=O)c1cc(OC)c(OC)cc1NC(=O)C12CC3CC(CC(C3)C1)C2", "result": ">200 µM"}
{"compound": "C#C[C@@]1(CO)C=C[C@H](n2cc(C)c(=O)[nH]c2=O)O1", "result": ">100 µM"}
{"compound": "CCNC(=O)c1cc(C)ccc1NC(=O)C12CC3CC(CC(C3)C1)C2", "result": ">200 µM"}
{"compound": "CNC(=O)c1cn([C@@H]2O[C@H](CO[Si](C)(C)C(C)(C)C)C3(OS(=O)(=O)C=C3N)[C@H]2O[Si](C)(C)C(C)(C)C)nn1", "result": ">1.2 µM"}
{"compound": "Cc1cn([C@H]2C[C@H](N=[N+]=[N-])[C@@H](COP(=O)(OCCC#N)O[C@H]3CC[C@@]4(C)C(=CC[C@@H]5[C@@H]4CC[C@]4(C)C([C@H](C)CCCC(C)C)CC[C@@H]54)C3)O2)c(=O)[nH]c1=O", "result": ">200 µM"}
{"compound": "Cc1cn([C@H]2C[C@H](N=[N+]=[N-])[C@@H](CO)O2)c(=O)[nH]c1=O", "read by": "MTT", "result": ">200 µM"}
{"compound": "CCOC(=O)N[C@H](C(=O)N[C@@H](Cc1ccccc1)[C@@H](O)C[C@H](Cc1ccccc1)NC(=O)c1ccccc1NC(=O)OCc1ccccn1)C(C)CC", "result": ">0.05 µM"}

CCn is the concentration with n% toxicity to the cells. An empty or dashed field is not shown.